A mixed list of measured activities; the numbers were collected in NIAID ChemDB.

Common to all: tests in culture; organism: HIV-1

Neighbouring rows are from separate reports. An empty or dashed field is not shown. ECn is the concentration giving n% inhibition of infection, replication or growth.

| compound | mutations | cell line | endpoint | setting | strain | read by | value |
|---|---|---|---|---|---|---|---|
| CCCc1cc(=O)oc2c3c(c4c(c12)OC(C)(C)C=C4)O[C@H](C)[C@@H](C)[C@@H]3O | - | PBMC | EC50 | - | CLADE F | RT activity | 0.04 µM |
| CC(C)OC(=O)OCOP(=O)(CO[C@H](C)Cn1cnc2c(N)ncnc21)OCOC(=O)OC(C)C | RT-D67N K70R T215F K219Q | MT-2 | EC50 | - | G910-6 AZT-resistant (RT D67N K70R T215F K219Q) | p24 | 0.001 µM |
| Nc1ncnc2c1ncn2[C@@H]1O[C@H](CO)C[C@@H]1F | - | MT-2 | EC50 | - | LAI | p24 | 5 µM |
| CC[C@@H](C)[C@H](C(=O)O)N1C[C@H](CN2CCC(c3cc(Cc4ccc(O)cc4)nn3CC)CC2)[C@@H](c2cccc(F)c2)C1 | - | HeLa | EC90 | 50% human serum | BaL | β-galactosidase | 0.011 µM |
| O=c1[nH]cnc2c1ncn2[C@H]1CC[C@@H](CO)O1 | RT-M41L S68N G112S M184V | HeLa | EC50 | - | Recombinant | luciferase | 3.69 µM |
| Nc1ccn([C@H]2CC[C@@H](CO)O2)c(=O)n1 | RT-M184V | MT-4 | EC50 | - | HXB2D (RT-M184V) | p24 | 2.5 µM |
| CC[C@@H](C)[C@H](C(=O)O)N1C[C@H](CN2CCC(c3cc(Cc4ccc(OCC(F)(F)F)cc4)nn3CC)CC2)[C@@H](c2cccc(F)c2)C1 | - | HeLa | EC50 | - | BaL | β-galactosidase | <0.0037 µM |
| Cc1ccnc2c1NC(=O)c1cccnc1N2C1CC1 | RT-K103E | CEM + CEM-SS | EC50 | - | NL4-3 | cytopathic effect / XTT | 0.3 µM |
| Cn1c2ccccc2c2c1cc(C#N)c(=O)n2-c1ccc([N+](=O)[O-])cc1 | RT-K103N P225H | HeLa | EC50 | - | NNRTI-resistant | luciferase | 0.0046 µM |
| Nc1ccn([C@H]2CC[C@@H](CO)O2)c(=O)n1 | - | PBL | EC50 | - | U455 | p24 | 0.02 µM |
| Cc1cn([C@H]2C[C@H](N=[N+]=[N-])[C@@H](CO)O2)c(=O)[nH]c1=O | RT-V106I | CEM + CEM-SS | EC50 | - | NL4-3 | XTT | 0.003 µM |
| O=C1N(Cc2ccc(CO)cc2)[C@H](Cc2ccccc2)[C@H](O)[C@@H](O)[C@@H](Cc2ccccc2)N1Cc1ccc(CO)cc1 | - | H9 | EC50 | - | IIIB | virus yield | <0.14 µM |
| Cc1c(Sc2ccccc2)n(COCCO)c(=O)[nH]c1=O | RT-P236L | CEM + CEM-SS | EC50 | - | IIIB | cytopathic effect / XTT | >325 µM |
| CC(C)=CCN1Cc2cc(Cl)cc3[nH]c(=S)n(c23)C[C@@H]1C | - | MT-4 | EC90 | - | MF | antigen | 0.19 µM |
| CCC[C@@]1(CCc2ccccc2)CC(O)=C([C@H](CC)c2cccc(NS(=O)(=O)c3ccc(C(F)(F)F)cn3)c2)C(=O)O1 | - | PBMC | EC50 | - | Isolate UJ00007 | p24 | <0.15 µM |
| CCCc1cc(=O)oc2c3c(c4c(c12)OC(C)(C)C=C4)O[C@@H](C)[C@H](C)[C@@H]3O | RT-K103N Y181C | CEM + CEM-SS | EC50 | - | Pyridinone-resistant (RT K103N Y181C) | cytopathic effect / XTT | 0.8 µM |
| CC(C)(C)NC(=O)[C@@H]1C[C@@H]2CCCC[C@@H]2CN1C[C@@H](O)[C@H](Cc1ccccc1)NC(=O)[C@H](CC(N)=O)NC(=O)c1ccc2ccccc2n1 | PR-M46I V82T | MT-4 | EC50 | - | NL4-3 | p24 | <0.025 µM |
| CC(C)c1nc(CN(C)C(=O)N[C@H](C(=O)N[C@@H](Cc2ccccc2)C[C@H](O)[C@H](Cc2ccccc2)NC(=O)OCc2cncs2)C(C)C)cs1 | - | MT-4 | EC50 | - | NL4-3 | p24 | <0.08 µM |
| CC(C)CN(C[C@@H](O)[C@H](Cc1cc(F)cc(F)c1)NC(=O)O[C@H]1CCO[C@H]2OCC[C@H]21)S(=O)(=O)c1ccc2nc(NC(C)C)sc2c1 | - | MT-4 | EC50 | - | NL4-3 | p24 / luminescence | 0.0013 µM |
| Cc1ccnc2c1NC(=O)c1cccnc1N2C1CC1 | RT-A98G Y181C | PBMC | EC50 | - | BCF08 | - | 10 µM |
| CN1N=C(N)c2cn([C@@H]3O[C@H](COP(=O)(O)O)[C@@H](O)[C@H]3O)c3ncnc1c23 | - | CEM + CEM-SS | EC50 | - | G5 | XTT | 0.15 µM |
| O=C(Nc1cc(S(=O)(=O)O)cc2cc(S(=O)(=O)O)c(N=Nc3ccc(N=Nc4c(S(=O)(=O)O)cc5cc(S(=O)(=O)O)cc(NC(=O)c6cccc(Cl)c6Cl)c5c4O)cc3)c(O)c12)c1ccc(Cl)cc1Cl | - | SupT1 + Sup-T1 | EC50 | - | IIIB/V3-RF | - | 0.7 µg/mL |
| O=C1CN=C(c2ccc[nH]2)c2cc(Cl)ccc2N1 | - | HUT-78/IIIB/LAI + HUT 78 | EC50 | - | IIIB/LAI | p24 | >1 µM |
| Nc1ncnc2c1ncn2CCOCP(=O)(O)O | RT-P119S | MT-2 | EC50 | - | P119S(RT-P119S) | p24 | 1.1 µM |
| Cc1ccnc2c1NC(=O)c1cccnc1N2C1CC1 | Y188L | MT-4 | EC50 | - | IIIB | MTT | 4.416 µM |
| CCn1nc(Cc2ccc(OC3CC3)cc2)cc1C1CCN(C[C@H]2CN([C@@H](C(=O)O)C(C)(C)C)C[C@@H]2c2cccc(F)c2)CC1 | - | HeLa | EC50 | 50% human serum | BaL | β-galactosidase | <0.033 µM |
| CC(C)(C)NC(=O)[C@@H]1C[C@@H]2CCCC[C@@H]2CN1C[C@@H](O)[C@H](Cc1ccccc1)NC(=O)[C@H](CC(N)=O)NC(=O)c1ccc2ccccc2n1 | PR-L10I K20C M36I L63T I64V A71V | PBMC | EC50 | - | MVP5180 (PR L10I K20C M36I L63T I64V A71V) | - | 0.013 µM |
| Cc1cc(C#CC2CC2)cc(C)c1Oc1ccnc(Nc2ccc(C#N)cc2)n1 | L100I | MT-4 | EC50 | - | IIIB | MTT | 0.163 µM |
| Cc1cn([C@H]2C=C[C@@H](CO)O2)c(=O)[nH]c1=O | RT-V35T E40D K173T R211K L214F | PBMC | EC50 | - | G3 R5 subtype G/- (env/gag) | p24 | 0.1 µM |
| Cc1cn([C@H]2C[C@H](N=[N+]=[N-])[C@@H](CO)O2)c(=O)[nH]c1=O | RT-M41L D67N K70R T215Y K219Q | MT-4 | EC90 | - | XM-AZT-resistant | p24 | 23 µM |
| CCn1nc(Cc2ccc(F)c(F)c2)cc1C1CCN(C[C@H]2CN([C@@H](C(=O)O)C(C)C)C[C@@H]2c2cccc(F)c2)CC1 | - | HeLa | EC90 | - | BaL | β-galactosidase | 0.0074 µM |
| O=C1N(Cc2ccc(CO)cc2)[C@H](Cc2ccccc2)[C@H](O)[C@@H](O)[C@@H](Cc2ccccc2)N1Cc1ccc(CO)cc1 | PR-L10R M46I L63P | MT-4 | EC95 | - | NL4-3 | p24 | 0.2 µM |
| Cc1cn([C@H]2C[C@H](N=[N+]=[N-])[C@@H](CO)O2)c(=O)[nH]c1=O | RT-F77L F116Y Q151M | MT-2 | EC50 | - | RT F77L/F116Y/Q151M | p24 | 0.71 µM |
| Cc1ccnc2c1NC(=O)c1cccnc1N2C1CC1 | RT-L74V | CEM + CEM-SS | EC50 | - | NL4-3 | XTT | 0.02 µM |
| Cc1cn([C@@H]2O[C@H](CO[Si](C)(C)C(C)(C)C)[C@@]3(OS(=O)(=O)C=C3N)[C@H]2O[Si](C)(C)C(C)(C)C)c(=O)[nH]c1=O | - | CEM + CEM-SS | EC50 | - | IIIB | cytopathic effect / XTT | 0.05 µM |
| Cc1cn([C@H]2C[C@H](N=[N+]=[N-])[C@@H](CO)O2)c(=O)[nH]c1=O | - | C8166 | EC50 | - | IIIB | MTT | 0.0218 µM |
| CCn1nc(Cc2ccc(Oc3ccccc3)cc2)cc1C1CCN(C[C@H]2CN([C@@H](C(=O)O)C(C)(C)C)C[C@@H]2c2cccc(F)c2)CC1 | - | HeLa | EC50 | 50% human serum | BaL | β-galactosidase | <0.3 µM |
| C/C=C/CSc1cc(NC(=S)c2ccsc2C)ccc1Cl | RT-V108I | CEM + CEM-SS | EC50 | - | Thiazolobenzimidazole-resistant (RT V108I) | cytopathic effect / XTT | 0.9 µM |
| Cc1ccnc2c1NC(=O)c1cccnc1N2C1CC1 | - | CEM + CEM-SS | EC50 | - | SK1 | cytopathic effect / XTT | 0.2 µM |
| CC(=O)N1CCC(C(=O)N(CCCN2CCC(Cc3ccc(C(N)=O)cc3)CC2)c2ccc(C)c(Cl)c2)CC1 | - | U87 (CD4+ CCR5+) + U87 | EC50 | - | R5 subtype B_7 recombinant | luciferase | 0.01 µM |
| CCn1nc(Cc2cc(F)cc(F)c2)cc1C1CCN(C[C@H]2CN([C@@H](C(=O)O)C(C)C)C[C@@H]2c2cccc(F)c2)CC1 | - | HeLa | EC50 | - | BaL | β-galactosidase | <0.011 µM |
| Cc1cc(S(N)(=O)=O)ccc1NC(=O)COc1ccc(Cl)cc1C(=O)c1cc(Cl)cc(C#N)c1 | RT-V106A Y181C | MAGI | EC50 | - | NNRTI-resistant (RT V106A Y181C) | β-galactosidase | 0.0009 µM |
| CCc1c(Sc2ccccn2)n(COCc2ccccc2)c(=O)[nH]c1=O | RT-Y181C | CEM + CEM-SS | EC50 | - | IIIB | cytopathic effect / XTT | 3.4 µM |
| Nc1ccn([C@H]2CC[C@@H](CO)O2)c(=O)n1 | RT-L214F | MT-2 | EC50 | - | L214F(RT-L214F) | p24 | 0.48 µM |
| CC[C@H](C)[C@H](C(=O)O)N1C[C@H](CN2CCC(c3cc(Cc4ccc(S(=O)(=O)c5ccccc5)cc4)nn3CC)CC2)[C@@H](c2cccc(F)c2)C1 | - | HeLa | EC50 | 50% human serum | BaL | β-galactosidase | <0.011 µM |
| Cc1occc1C(=S)Nc1ccc(Cl)c(/C=N/OC(C)(C)C)c1 | RT-Y181C K101E | CEM + CEM-SS | EC50 | - | UC10-resistant (RT Y181C K101E) | cytopathic effect / XTT | >20 µM |
| Cc1cc(C#Cc2ccccc2N)cc(C)c1Oc1ccnc(Nc2ccc(C#N)cc2)n1 | K103N | MT-4 | EC50 | - | IIIB | MTT | 0.537 µM |
| Cc1ccnc2c1NC(=O)c1cccnc1N2C1CC1 | RT-A98G | CEM + CEM-SS | EC50 | - | NL4-3 (RT A98G) | cytopathic effect / XTT | 0.2 µM |
| O=c1[nH]cnc2c1ncn2[C@H]1CC[C@@H](CO)O1 | - | MT-4 | EC90 | - | NL4-3 WT | p24 | 6.5 µM |
| Cc1ccnc2c1NC(=O)c1cccnc1N2C1CC1 | RT-L74V Y181C | HT4 + HT4 LacZ-1 | EC50 | - | HXB2 | plaque count | 4 µM |
| CC(C)CN(C[C@@H](O)[C@H](Cc1ccccc1)NC(=O)O[C@H]1CCOC1)S(=O)(=O)c1ccc(N)cc1 | L10I K14R L33I M36I M46I F53I K55R I62V L63P A71V G73S V82A L90M I93L | PBMC | EC50 | clinical isolate, multidrug-resistant | Clinical isolate | p24 / luminescence | 0.048 µM |
| Cc1cc(C#Cc2ccccn2)cc(C)c1Oc1ccnc(Nc2ccc(C#N)cc2)n1 | Y188L | MT-4 | EC50 | - | IIIB | MTT | >2.068 µM |
| CC[C@@H](C)[C@H](C(=O)O)N1C[C@H](CN2CCC(c3cc(Cc4ccc(C(F)(F)F)cc4)nn3CC)CC2)[C@@H](c2cccc(F)c2)C1 | - | HeLa | EC90 | 50% human serum | BaL | β-galactosidase | 0.1 µM |
| Cc1cn([C@H]2C[C@H](N=[N+]=[N-])[C@@H](CO)O2)c(=O)[nH]c1=O | RT-V108I | CEM + CEM-SS | EC50 | - | NL4-3 | cytopathic effect / XTT | 0.008 µM |
| Cc1cn([C@H]2C[C@H](N=[N+]=[N-])[C@@H](CO)O2)c(=O)[nH]c1=O | RT-V35T E40D K173T R211K L214F | PBMC | EC50 | - | G3 R5 subtype G/- (env/gag) | p24 | 0.006 µM |
| S=C(NCCc1cccs1)Nc1ccc(Br)cn1 | RT-M41L L210W T215Y | PBMC | EC50 | - | Q252-2 Clinical isolate NRTI-resistant | p24 | 0.0055 µM |
| CCn1nc(Cc2ccc(C#N)cc2)cc1C1CCN(C[C@H]2CN([C@@H](C(=O)O)C(C)(C)C)C[C@@H]2c2cccc(F)c2)CC1 | - | HeLa | EC50 | 50% human serum | BaL | β-galactosidase | <0.0037 µM |
| Cc1cn([C@H]2C[C@H](N=[N+]=[N-])[C@@H](CO)O2)c(=O)[nH]c1=O | RT-A98G K103R | PBMC | EC50 | - | BCF11 | - | 0.01 µM |
| Nc1nc(NC2CC2)c2ncn([C@H]3C=C[C@@H](CO)C3)c2n1 | RT-M41L V118I M184V | HeLa | EC50 | - | Recombinant | luciferase | 4.28 µM |
| CC(C)=CCN1c2cc(Cl)cc3[nH]c(=S)n(c23)C[C@@H]1C | RT-D67N K70R T215Y K219Q L100I | MT-4 | EC50 | - | - | - | <0.2 µM |
| COC(=O)[C@H](C)NP(=O)(OC[C@@H]1C=C[C@H](n2cc(C)c(=O)[nH]c2=O)O1)Oc1ccc(Br)cc1 | RT-T69K K70G V75I F77L F116Y Q151M M184V | PBMC | EC50 | - | 1617-1 NRTI resistant recombinant | RT activity | 0.0058 µM |

The last 7 rows once more:

compound,mutations,cell line,endpoint,setting,strain,read by,value
Cc1cn([C@H]2C[C@H](N=[N+]=[N-])[C@@H](CO)O2)c(=O)[nH]c1=O,RT-V35T E40D K173T R211K L214F,PBMC,EC50,-,G3 R5 subtype G/- (env/gag),p24,0.006 µM
S=C(NCCc1cccs1)Nc1ccc(Br)cn1,RT-M41L L210W T215Y,PBMC,EC50,-,Q252-2 Clinical isolate NRTI-resistant,p24,0.0055 µM
CCn1nc(Cc2ccc(C#N)cc2)cc1C1CCN(C[C@H]2CN([C@@H](C(=O)O)C(C)(C)C)C[C@@H]2c2cccc(F)c2)CC1,-,HeLa,EC50,50% human serum,BaL,β-galactosidase,<0.0037 µM
Cc1cn([C@H]2C[C@H](N=[N+]=[N-])[C@@H](CO)O2)c(=O)[nH]c1=O,RT-A98G K103R,PBMC,EC50,-,BCF11,-,0.01 µM
Nc1nc(NC2CC2)c2ncn([C@H]3C=C[C@@H](CO)C3)c2n1,RT-M41L V118I M184V,HeLa,EC50,-,Recombinant,luciferase,4.28 µM
CC(C)=CCN1c2cc(Cl)cc3[nH]c(=S)n(c23)C[C@@H]1C,RT-D67N K70R T215Y K219Q L100I,MT-4,EC50,-,-,-,<0.2 µM
COC(=O)[C@H](C)NP(=O)(OC[C@@H]1C=C[C@H](n2cc(C)c(=O)[nH]c2=O)O1)Oc1ccc(Br)cc1,RT-T69K K70G V75I F77L F116Y Q151M M184V,PBMC,EC50,-,1617-1 NRTI resistant recombinant,RT activity,0.0058 µM